In patent publication US20190048340 (CRISPR Therapeutics AG, published 2019):

How the values were obtained:
Assay in all cases: EMSA; 37 C
[1] = target: Cpf1 D1255A (Francisella novicida U112, UniProt A0Q7Q2 SEQ:1-1300, D1255A)
[2] = target: Cpf1 D917A (Francisella novicida U112, UniProt A0Q7Q2 SEQ:1-1300, D917A)
[3] = target: Cpf1 E1006A (Francisella novicida U112, UniProt A0Q7Q2 SEQ:1-1300, E1006A)

B1:  (ssRNA ; dsDNA)
chain 1: GGGUCUAAGAACUUUAAAUAAUUUCUACUGUUGUAGAUAGAUUAAAAGGUAAUUCUAUCUUGUUGAG
chain 2: AGCTGTAGCAAATATTAATCATATAGAAGAAAGCTCAGATCTCAACAAGATAGAATTACCTTTTAATCTTAAATTATTATATCCAGAAACTATTGATGGTAATTTACTTATC
chain 3: AGCTGATAAGTAAATTACCATCAATAGTTTCTGGATATAATAATTTAAGATTAAAAGGTAATTCTATCTTGTTGAGATCTGAGCTTTCTTCTATATGATTAATATTTGCTAC
- Kd [1]: 52 nM
- Kd [2]: 48 nM
- Kd [3]: 40 nM
